The supplement of paper PMC12637763
The other results are listed elsewhere or left out. Env chains of viruses from a treatment-interruption trial, translated from the printed DNA. IC50 / IC80 of two broadly neutralizing antibodies; lower = more sensitive virus; >50 µg/ml means not reached and <0.001 µg/ml is below the lowest dose. No active / inactive call.

Tests used:
antibody 10-1074 [1] = assay: neutralization IC50; higher = virus less sensitive to the antibody
Experimental: (§1)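 Pseudovirus bearing the Env chain mixed with antibody, from 50 µg/ml in fivefold dilutions, on TZM-bl reporter cells, in duplicate.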

antibody 3BNC117 [2] = assay: as above
Experimental: as §1

antibody 10-1074 [3] = assay: neutralization IC80; higher = virus less sensitive to the antibody
Experimental: as §1

antibody 3BNC117 [4] = assay: as above
Experimental: as §1

B1: HIV-1 Env, reservoir clone (protein)
chain: MRAKGIRKNYQDLLKGGILLLGILMICSAAGNLWVTVYYGVPVWKDATTTLFCASDAKGYNKEAHNVWATHACVPTDPDPREIVMGNVTENFNMWKNDMVDQMHEDIISLWDQSLKPCVKLTPLCVTLKCTNYSNGSRSEEMKNCSFNVTTIKGKYQKEYAVLYKLDLVPIDNNDNTSYMLINCNTSVITQACPKISFEPIPIHYCAPAGFAILKCNNKTFNGTGPCTNVSSVQCTHGIRPAVSTQLLLNGSLAEEEVVIRSENFTDNAKTIIVQLKDPIQINCTRPNNNTRRSIHIAPGRAFYATGQIIGNIRQAHCNISKEQWNEALNQTVRKLREQFGNKTIFFNQSSGGDPEIVMHTFNCGGEFFYCNTTQLFNSTWDNTTNSTDSNNDTITLPCRIKQVINRWQEVGKAMYAPPISGPISCSSNITGLLLIRDGGNNNSSNSNETFRPGGGNMKDNWRSELYKYKVVKIEPLGVAPTKAKRRVVQRERRAVTLGAMFLGFLGTAGSTMGAASLTLTVQARQLLSGIVQQQSNLLRAIEMQQHLLQLTVWGIKQLQARVLAVERYLKDQQLLGIWGCSGKLICTTTVPWNASWSKKNLSEIWDNMTWIEWEREIQNYTEEIYSLIEKSQNQQAKNEQELLELDKWANLWNWFDITNWLWYIKIFIMIVGGLIGLRIVFTVLSIVNRVRQGYSPLSFQTRLPTQRGPDRPEGTEEEGGERDRDTSRPLVDGFLAIIWVDLRSLFLFSYHRLRDLLLIVTRIVETLGRRGWELLKYWWNLLQYWSQELKNSAISLLNATAIAVAEGTDRVIELIQRAGRAIIHIPRRIRQGLESALL
Q: What does the source list for B1?
A: neutralization IC50 (antibody 10-1074 [1]): < 0.001 µg/mL; neutralization IC50 (antibody 3BNC117 [2]): 0.074 µg/mL; neutralization IC80 (antibody 10-1074 [3]): < 0.001 µg/mL; neutralization IC80 (antibody 3BNC117 [4]): 0.165 µg/mL

B2: HIV-1 Env, reservoir clone (protein)
chain: MKVRGMKRNYQHLWGWGTMLLFWMIIMCKAAGNLWVTVYYGVPVWRDAETTLFCASDAKAYDKEVHNVWATHACVPTDPNPQEVRLENVTEHFNMWENNMVEQMQTDIISLWDQSLKPCVKLTPLCVTLECTEPKLNSSTSNNSLSSTSNNSQYEEMKNCSFNMTTELRDKQKKVYSLFYKLDIVETDNNSSRYRLINCNTSTLTQACPKVTFEPIPIYYCAPAGFAILKCNDPQFNGTGPCTNVSTVQCTHGIKPVVSTQLLLNGSLAKEQVMIRSKNITDNSKTIIVQLKKPVNITCIRPGNNTRTSIRIGPGQAFYATGEITGDIRKAHCNVSRAEWNRTLQEISTQLQGYFNNKTIIFKNSSGGDLEVTTHSFNCGGEFFYCNTTKLFNSTWYGNETVINGTEASENITLQCRIKQIINMWQRVGQAMYAPPIRGEIRCESNITGLLLTRDGGGGNSSNNETFRPTGGDMRDNWRSELYKYKVVQVEPIGIAPTPAKRRVVEREKRAVGLGAAFLGFLGAAGSTMGAASLTLTVQARQLLSGIVQQQSNLLRAIEAQQHLLKLTVWGIKQLQARVLAVERYLRDQQLLGIWGCSGKLICTTAVPWNSSWSNKSYKDIWDNMTWMQWDKEVLNYTSIIYSLLEESQNQQEKNEQDLLALDKWASLWSWFDISKWLWYIKIFIMIVGGLIGLRIVFTVLSIINRVRQGYSPLSLQTLTPHPEEPDRPGRINEEGGEQDKGRSIRLVNGFLALAWDDLRSLCLFSYHRLRDFISIAARTVELLGRSSLKGLRLGWEGLKYLGNLLGYWSRELKNSAINLIDTIAIAVAGWTDRVIEIVQGSCRAIRNIPRRIRQGAEKALQ
Q: Which “neutralization IC50” value (antibody 10-1074 [1]) does the source give for B2 here?
A: 0.078 µg/mL

Q: What about the “neutralization IC50” value (antibody 3BNC117 [2]) of the same binder?
A: 0.262 µg/mL

Q: And the “neutralization IC80” value (antibody 10-1074 [3])?
A: 1.3 µg/mL

Q: And the “neutralization IC80” value (antibody 3BNC117 [4])?
A: 0.615 µg/mL

B3: HIV-1 Env, reservoir clone (protein)
chain: MRVKGIRKNYQDLLKGGILLLGILMICSAAGNLWVTVYYGVPVWKDATTTLFCASDAKGYNKEAHNVWATHACVPTDPDPREIVMGNVTENFNMWKNDMVDQMHEDIISLWDQSLKPCVKLTPLCVTLKCTNLKNNTNSNISSKNGSEEMKNCSFNVTTIKGKYQQEYAVLYKLDLVPIDNNDNTSYMLINCNTSVITQACPKISFEPIPIHYCAPAGFAILKCNNKTFNGTGPCTNVSSVQCTHGIRPVVSTQLLLNGSLAEEEVVIRSENFTDNAKTIIVQLKDPIQINCTRPNNNTRRSIHIAPGKAFYATGQIIGDIRQAHCNISKEQWNEALNQTVRKLREQFGNKTIFFNQSSGGDPEIVMHTFNCGGEFFYCNTTQLFNSTWDNTTNSTDSNNGNITLPCRIRQVINRWQEVGKAMYAPPISGPISCSSNITGLLLIRDGGNNNSSNSNETFRPGGGNMKDNWRSELYKYKVVKIEPLGVAPTKAKRRVVQRERRAVTLGAMFLGFLGTAGSTMGAASLTLTVQARQLLSGIVQQQSNLLRAVEVHQHLLQLTVWGIKQLQARVLAVERYLKDQQLLGIWGCSGKLICTTTVPWNASWSKKNLSQIWDNMTWIEWEREIQNYTEEIYSLIEKSQNQQAKNEQELLELDKWANLWNWFDITNWLWYIKIFIMIVGGLIGLRIVFTVLSIVNRVRQGYSPLSFQTRLPTQRGPDRPEGTEEEGGERDRDTSRPLVDGFLAIIWVDLRSLFLFSYHRLRDLLLIVTRIVETLGRRGWELLKYWWNLLQYWSQELKNSAISLLNATAIAVAEGTDRVIELIQRAGRAIIHIPRRIRQGLESALL
Q: Which “neutralization IC50” value (antibody 10-1074 [1]) does the source give for B3 here?
A: 0.035 µg/mL

Q: And the “neutralization IC50” value (antibody 3BNC117 [2])?
A: 0.305 µg/mL

Q: And the “neutralization IC80” value (antibody 10-1074 [3])?
A: 0.191 µg/mL

Q: And the “neutralization IC80” value (antibody 3BNC117 [4])?
A: 0.974 µg/mL

B4: HIV-1 Env, reservoir clone (protein)
chain: MRAKGIRKNCQDLLKGGILLLGILMICSAAGNLWVTVYYGVPVWKDATTTLFCASDAKGYSKEAHNVWATHACVPTDPDPREVVMGNVTENFNMWKNDMVDQMHEDIISLWDQSLKPCVKLTPLCVTLNCTNLNLNVTNSNTSNGNWSEEMKNCSFNVTTIKGKYQTEYAVLYKLDLVPIDKNDNTSYMLINCNTSVITQACPKISFEPIPIHYCAPAGFAILKCNNKTFNGTGPCTNVSSVQCTHGIRPVVSTQLLLNGSLAEEEVVIRSENFTDNAKTIIVQLKDPIQINCTRPSNNTRKSIHIGPGRAFYATGQIIGDIRQAYCNISKEQWKEALNQTVRKLKEQFGNKTMIFNQSSGGDPEIVMHTFNCGGEFFYCNTAQLFNSTWYDTTNSTDSNNDTSKPIKLPCRIKQVINRWQEVGKAMYAPPIRGSIRCSSNITGLLLVRDGGNNNSSNSSETFRPGGGNMKDNWRSELYKYKVVKIEPLGVAPTKAKRRVVQRERRAVTLGAMFLGFLGTAGSTMGAASLTLTVQARQLLSGIVQQQSNLLRAIEVHQHMLQLTVWGIKQLQARVLAVERYLKDQQLLGIWGCSGKLICTTTVPWNTSWSKKNLSEIWDNMTWIEWEREIQNYTEEIYSLIEKSQNQQAKNEQELLELDKWANLWNWFDITNWLWYIKIFIMIVGGLIGLRIVFTVLSIVNRVRQGYSPLSFQTRLPTQRGPDRPGGTEEEGGERDRDTSRPLVDGFLAIIWVDLRSLFLFSYHRLRDLLLIVTRIVETLGRRGWELLKYWWNLLQYWSQELKNSAISLLNATAIAVAEGTDRVIELIQRAGRAIIHIPRRIRQGLESALL
Q: With B4 as the binder, how does the “neutralization IC50” value (antibody 10-1074 [1]) read?
A: 0.561 µg/mL

Q: And the “neutralization IC50” value (antibody 3BNC117 [2])?
A: 0.225 µg/mL

Q: And the “neutralization IC80” value (antibody 10-1074 [3])?
A: 2.77 µg/mL

Q: What about the “neutralization IC80” value (antibody 3BNC117 [4]) of the same binder?
A: 0.601 µg/mL

B5: HIV-1 Env, reservoir clone (protein)
chain: MRAKGIRKNCQDLLKGGILLLGILMICSAAGNLWVTVYYGVPVWKDATTTLFCASDAKGYSKEAHNVWATHACVPTDPDPREVVMGNVTENFNMWKNDMVDQMHEDIISLWDQSLKPCVKLTPLCVTLNCTNLNITNLNNTNSNTSNPNNNTSIENGSEEMKNCSFNVTTIKGKYQQEYAILYKLDLVPIDKNDNTSYMLINCNTSVITQACPKISFEPIPIHYCAPAGFAILKCNNKTFNGTGPCTNVSSVQCTHGIRPVVSTQLLLNGSLAEEEVVIRSENFTDNAKTIIVQLKDPIQINCTRPSNNTRKSIHIGPGRAFYATGQIIGDIRQAYCNISKEQWNEALNQTVRKLREQFGNKTIFFNQSSGGDPEIVMHTFNCGGEFFYCNTTQLFNSTWYDTTNSTDSNNGTIKLPCRIKQVINRWQEVGKAMYAPPIRGSIRCSSNITGLLLVRDGGNNNSSNSSETFRPGGGNMKDNWRSELYKYKVVKIEPLGVAPTKAKRRVVQRERRAVTLGAMFLGFLGTAGSTMGAASLTLTVQARQLLSGIVQQQSNLLRAIEVHQHMLQLTVWGIKQLQARVLAVERYLKDQQLLGIWGCSGKLICTTTVPWNASWSKKNLSEIWDNMTWIEWEREIQNYTEEIYSLIEKSQNQQAKNEQELLELDKWANLWNWFDITNWLWYIKIFIMIVGGLIGLRIVFTVLSIVNRVRQGYSPLSFQTRLPTQRGPDRPEGTGEEGGERDRDTSRPLVDGFLAIIWVDLRSLFLFSYHRLRDLLLIVTRIVETLGRRGWELLKYWWNLLQYWSQELKNSAISLLNATAIAVAEGTDRVIELIQRAGRAIIHIPRRIRQGLESALL
Q: Which results are given for B5?
A: neutralization IC50 (antibody 10-1074 [1]): 10 µg/mL; neutralization IC50 (antibody 3BNC117 [2]): 0.204 µg/mL; neutralization IC80 (antibody 10-1074 [3]): > 50 µg/mL; neutralization IC80 (antibody 3BNC117 [4]): 0.57 µg/mL

B6: HIV-1 Env, reservoir clone (protein)
chain: MRVRGIRKNYQRLWGWGITLLGMLMICSATEKMWVTVYYGVPVWKEATTTLFCASDAKAYDKEVHNVWATHACVPTDPSPQEVGLENVTETFNMWKNNMVDQMHEDIMSLWDQSLKPCVKLTPLCVTLNCTDATKVNASEINNSSLGEMKNCSFNITTSIRDKIQRTYAYFYKLDLVPIDTNNTSYRLISCNTSVITQACPKVSFEPIPIHYCAPAGFAILKCRDKKFNGKGECRNVSTVQCTHGIRPVVSTQLLLNGSLAEEEVVIRSNNFTDNAKTIIVQLNQSVQINCTRPNNNRRKSINIGPGRAFYAAGDIIGDIRQAHCNISRTKWNNTLRQIVEKLKEQFPNKTIVFNQSSGGDPEIVMHSFNCGGEFFFCDTTKLFNSTWSNNGTWNSTNSTVGNDTITLPCRMKQIINMWQEVGKAMYAPPISGQIRCSSNITGLLLTRDGGKVNSTNETFRPGGGDMRDNWRSELYKYKVVKIKPLGIAPTKAKRRVVQREKRAVGIGAVFLGFLGAAGSTMGAASVTLTVQARLLLSGIVQQQNNLLRAIEAQQHLLQLTVWGIKQLQARVLAVERYLQDQQLLGIWGCSGKLICTTAVPWNTSWSNKTYKGIWENMTWMQWEKEIDNYTGLIYNLIEESQNQQEKNEQELLELDKWASLWNWFSITQWLWYIKLFVMIVGGLIGLRIVMTILSIVNRVRKGYSPLSFQTHLPTPRGPDRPEGTEEEGGERERDRSERLVNGFLALIWDDLRSLCLFSYHRLRDLILVVTRIVELLGRRGREVLKYWWNLLQYWGQELRNSTVSLLDAIAIAVAGGTDRIIEGVQRVCRAIRHIPRRIRQGAERALV
Q: Which results are given for B6?
A: neutralization IC50 (antibody 10-1074 [1]): 0.001 µg/mL; neutralization IC50 (antibody 3BNC117 [2]): 0.01 µg/mL; neutralization IC80 (antibody 10-1074 [3]): 0.005 µg/mL; neutralization IC80 (antibody 3BNC117 [4]): 0.017 µg/mL
